# Experimental data: article PMC2949506
# Sequences of proteins named here, by UniProt entry; tags and fusion partners are left off. A change or cut given only in a name is not applied to a line headed by its entry.
# UniProt Q15370: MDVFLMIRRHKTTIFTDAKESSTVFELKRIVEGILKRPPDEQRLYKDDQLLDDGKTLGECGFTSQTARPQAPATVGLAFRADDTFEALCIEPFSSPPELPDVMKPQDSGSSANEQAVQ
# Biological target: Elongin BC complex (human Elongin B with Elongin C residues 17-122) (human) (UniProt Q15370)
# Test: HDX-MS
substance,measurement,value
HIV-1 Vif (HXB2) residues 135-158 peptide with 6xHis tag,Kd,230 nM
